Pooled drug test results. Numbers come from NIAID ChemDB, via PubChem.

All rows: tests on isolated targets

Neighbouring rows are from separate reports. ICn: concentration for n% inhibition. Inhibition is in % at the dose shown (toxicity tests: loss of growth or viability). Fold resistance has wild type as its base. Blank or dashed fields: not listed here.

CCN(C(=O)OCc1ccccc1)C1CCN(CC[C@](C)(CN(C)S(=O)(=O)c2ccccc2)c2ccccc2)CC1 ; protein: CCR5 ; method: radiometric ; changes: CCR5-Y251A ; measure: fold resistance ; value: 27.5
O=C(Nc1nnc(NCCc2c[nH]c3ccccc23)s1)c1cc2ccccc2s1 ; protein: Polymerase ; species: Human cytomegalovirus ; measure: IC50 ; value: >25 µM
CCS(=O)(=O)O.Cc1cc(NC(=O)CCc2ccc(N3C(N)=NC(N)=NC3(C)C)cc2)ccc1S(=O)(=O)F ; protein: DHFR ; strain or isolate: RH ; species: Toxoplasma gondii ; measure: IC50 ; value: 0.052 µM
CCc1c[nH]c(=O)[nH]c1=O ; protein: Uracil phosphoribosyltransferase ; strain or isolate: RH ; dose: 2000 µM ; species: Toxoplasma gondii ; measure: inhibition ; value: <5%
CN(Cc1cnc2nc(N)nc(N)c2n1)c1ccc(C(=O)N[C@@H](CCC(=O)O)C(=O)O)c2ccccc12 ; protein: DHFR ; strain or isolate: RH ; species: Toxoplasma gondii ; measure: IC50 ; value: 0.00228 µM
O=C(Nc1nnc(NCCC(c2ccccc2)c2ccccc2)s1)c1ccc(Br)cc1 ; protein: Polymerase ; species: Human cytomegalovirus ; measure: IC50 ; value: >25 µM
O=C(c1ccccc1Cl)N1C[C@H](CN2CCC(O)(CCCc3ccc(-c4nn[nH]n4)cc3)CC2)[C@@H](c2ccccc2)C1 ; protein: CCR5 ; method: radiometric ; changes: CCR5-W86A ; measure: IC50 ; value: 0.12 µM
Nc1c[nH]c(=O)[nH]c1=O ; protein: Uracil phosphoribosyltransferase ; strain or isolate: RH ; species: Toxoplasma gondii ; measure: IC50 ; value: >2000 µM
Cc1cn([C@@H]2O[C@H](CO[Si](C)(C)C(C)(C)C)C3(OS(=O)(=O)C=C3N)[C@H]2O[Si](C)(C)C(C)(C)C)c(=O)n(C)c1=O ; protein: Reverse transcriptase ; method: nucleotide incorporation / radiometric ; changes: RT-N137K ; species: HIV ; measure: fold resistance ; value: 2.1
CCc1nc(N)nc(N)c1-c1ccc(N(C)Cc2ccccc2)c(N)c1 ; protein: DHFR ; strain or isolate: RH ; species: Toxoplasma gondii ; measure: IC50 ; value: 0.015 µM
O=C(/C=C/c1ccccc1)Nc1nnc(NCCNc2ccccc2)s1 ; protein: Polymerase ; species: Human cytomegalovirus ; measure: IC50 ; value: >25 µM
O=C1CCCC(=O)O1 ; protein: Uracil phosphoribosyltransferase ; strain or isolate: RH ; species: Toxoplasma gondii ; measure: IC50 ; value: >2000 µM
C=CCN(C(=O)OCc1ccc([N+](=O)[O-])cc1)C1CCN(CC[C@](C)(CN(C)S(=O)(=O)c2ccccc2)c2ccccc2)CC1 ; protein: CCR5 ; method: radiometric ; changes: CCR5-Y37A ; measure: IC50 ; value: 0.0013 µM
O=c1cc(CCl)[nH]c(=O)[nH]1 ; protein: Uracil phosphoribosyltransferase ; strain or isolate: RH ; species: Toxoplasma gondii ; measure: IC50 ; value: >2000 µM
Cc1cn([C@@H]2O[C@H](CO[Si](C)(C)C(C)(C)C)[C@@]3(OS(=O)(=O)C=C3N)[C@H]2O[Si](C)(C)C(C)(C)C)c(=O)[nH]c1=O ; protein: Reverse transcriptase ; method: nucleotide incorporation / radiometric ; changes: RT-N137D ; species: HIV ; measure: fold resistance ; value: 0.68
CS(=O)(=O)c1cc(=O)[nH]c(=O)[nH]1 ; protein: Uracil phosphoribosyltransferase ; strain or isolate: RH ; dose: 2000 µM ; species: Toxoplasma gondii ; measure: inhibition ; value: <5%
CC(C)=CCOc1cc(NC(=S)c2ccoc2C)ccc1Cl ; protein: Reverse transcriptase ; method: nucleotide incorporation / radiometric ; changes: RT-N137Y ; species: HIV ; measure: IC50 ; value: 0.02 µM
Nc1ccnc(=S)[nH]1 ; protein: Uracil phosphoribosyltransferase ; strain or isolate: RH ; dose: 2000 µM ; species: Toxoplasma gondii ; measure: inhibition ; value: <10%
CCCCCCCC/C=C/CCCCCCCC(=O)Nc1nnc(NCCc2cnc[nH]2)s1 ; protein: Polymerase ; species: Human cytomegalovirus ; measure: IC50 ; value: >25 µM
CC1(C)N=C(N)N=C(N)N1c1cccc(OCc2cccc(N)c2)c1 ; protein: DHFR ; strain or isolate: RH ; species: Toxoplasma gondii ; measure: IC50 ; value: 0.27 µM
O=c1cccc[nH]1 ; protein: Uracil phosphoribosyltransferase ; strain or isolate: RH ; dose: 2000 µM ; species: Toxoplasma gondii ; measure: inhibition ; value: <5%

Again, the opening 2 rows:

structure | protein | strain or isolate | method | dose | changes | species | measure | value
CCN(C(=O)OCc1ccccc1)C1CCN(CC[C@](C)(CN(C)S(=O)(=O)c2ccccc2)c2ccccc2)CC1 | CCR5 |  | radiometric |  | CCR5-Y251A |  | fold resistance | 27.5
O=C(Nc1nnc(NCCc2c[nH]c3ccccc23)s1)c1cc2ccccc2s1 | Polymerase |  |  |  |  | Human cytomegalovirus | IC50 | >25 µM